# In paper PMC12255788, “Intracellular pathogen effector reprograms host gene expression by inhibiting mRNA decay” (Nature Communications, 2025):
# B1: His6-PieF (natural protein)
# chain: MKRLIICNGNKLTVCTQAISSGGIVEKYTPIFSLTKESDNELTLELSGVARGYYIIPSELTSSQARAAHLITLLTRAEESQTTDMHKILNSFVSGKITSGSMFNFENDGSFKREPEEAYNLINKI
# How the values were obtained:
# [1] = molecular target: His6-SUMO-NOT7 (human, UniProt Q9UIV1 1-285); assay: ITC
# [2] = molecular target: His6-SUMO-NOT8 (human, UniProt Q9UFF9 1-292); assay: ITC
binder,measurement,setting,value
B1,Kd,[1],~24 nM
same,Kd,[2],~24 nM
